Assay results published in PMC10937945 (2023).
“And” between values parts separate entries of the source, which are not always exact repeats. Equal entries are not always repeated.

How the values were obtained:
[1] = target: Hantaan virus polymerase (HTNV-L), full-length wild type (Hantaan virus (strain 76-118/Korean hemorrhagic fever)) (UniProt P23456); test: cryo-EM structure
[2] = target: Hantaan virus polymerase (HTNV-L), full-length wild type (Hantaan virus (strain 76-118/Korean hemorrhagic fever)) (UniProt P23456); test: cryo-EM 2D class averages
[3] = target: Hantaan virus polymerase (HTNV-L), full-length wild type (Hantaan virus (strain 76-118/Korean hemorrhagic fever)) (UniProt P23456); test: mass photometry
[4] = target: Hantaan virus polymerase (HTNV-L), full-length wild type (Hantaan virus (strain 76-118/Korean hemorrhagic fever)) (UniProt P23456); test: mass photometry; remark: listed apart in the source

Hantaan virus polymerase (HTNV-L), full-length wild type, P23456 1-2151
percent of particles in 2D class averages that are hexamers [1]: 2.1% | percent of particles in 2D class averages that are symmetric dimers [1]: 10.1% | stoichiometry N [1]: 2 and 6 | percent of particles in 2D class averages that are 5'vRNA-related dimers [2]: 7.6% | stoichiometry N [2]: 2 | stoichiometry N [3]: 3 and 4 | percent of detected species that are dimers [4]: 17% | percent of detected species that are higher oligomers up to hexamers [4]: 2% | stoichiometry N [4]: 2 and 6
